Measured values from several laboratories, pooled; numbers as filed in NIAID ChemDB.

Shared fields: cytotoxicity tests; cells: MT-4; read by: trypan blue; endpoint: CC50

CCn: concentration that lowers growth or viability of the cells by n%. Rows are shuffled and stem from different studies.

structure,result
NC[C@H]1O[C@@H](n2cnc3c(N)ncnc32)C[C@@H]1N,>500 µg/mL
Nc1ncnc2c1ccn2[C@@H]1C=C[C@H](CO)C1,>500 µM
CN1c2ccccc2C2C1C=C(C#N)C(=O)N2c1ccc([N+](=O)[O-])cc1,>50 µM
CCCCCCCC/C=C\CCCCC(CCC(=O)O)NC1c2ccc3cc4c5c6c(cc7ccc8cc9cc1c1c9c9c8c7c6c9c6c1c2c3c56)C4,>1000 µM
NC[C@@H]1C[C@H](N)[C@H](n2cnc3c(N)ncnc32)O1,>500 µg/mL
COC(=O)[C@H](Cc1ccccc1)NP(=O)(OC[C@@H]1C=C[C@H](n2ccc3c(N)ncnc32)C1)Oc1ccccc1,42 µM
NC[C@@H]1C[C@@H](O)[C@H](n2cnc3c(N)ncnc32)O1,>500 µg/mL
N#CC1=CC2Nc3ccccc3C2N(c2ccc([N+](=O)[O-])cc2)C1=O,50 µM
COC(=O)[C@H](C)NP(=O)(OC[C@H]1C=C[C@@H](n2ccc3c(N)ncnc32)C1)Oc1ccccc1,26 µM
NC[C@@H]1C[C@@H](N)[C@H](n2cnc3c(N)ncnc32)O1,>500 µg/mL
O=C(O)CCCCCNC1c2ccc3cc4c5c6c(cc7ccc8cc9cc1c1c9c9c8c7c6c9c6c1c2c3c56)C4,>1500 µM
COC(=O)[C@H](Cc1ccccc1)NP(=O)(OC[C@H]1C=C[C@@H](n2ccc3c(N)ncnc32)C1)Oc1ccccc1,31.5 µM
CCCc1cc(=O)oc2c3c(c4c(c12)OC(C)(C)C=C4)O[C@H](C)C[C@@H]3O,23 µM
COC(=O)[C@H](C)NP(=O)(OC[C@@H]1C=C[C@H](n2ccc3c(N)ncnc32)C1)Oc1ccccc1,>25 µM
Nc1ncnc2c1ncn2[C@H]1C[C@@H](N)[C@@H](CO)O1,>500 µg/mL

The first 2 rows once more:

| structure | result |
|---|---|
| NC[C@H]1O[C@@H](n2cnc3c(N)ncnc32)C[C@@H]1N | >500 µg/mL |
| Nc1ncnc2c1ccn2[C@@H]1C=C[C@H](CO)C1 | >500 µM |